PubChem BioAssay AID624099 | ICCB-Longwood – 2012
Assay: 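Knock-downs relieving repression by E2 of an HPV18 LCR luciferase reporter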 (primary screen). System: human C33A cervical carcinoma cells (HPV-negative) stably expressing BPV1 E2 and an HPV18 LCR luciferase reporter. Reagents: siRNA pool against human genes, 40 nM. Duration: 72 h. Read-out: 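Per-well luciferase luminescence, z-scored on each plate against the plate mean and SD with control wells left out, then averaged across three replicate plates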. Direction: mean z-score and z-score: higher = stronger reporter signal, weaker E2 silencing. Call rule: 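Mean z ≥ 2 together with z ≥ 2 in two or more of the three replicates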.
Here is a random part of about 21,000 reagents. 497 of them (2.4%) were called active. 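Higher z means weaker E2 silencing; only reporter increases were scored, and knock-downs that hurt cell survival may mask genuine repressor factors.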

| gene symbol | mean z-score | z-score, replicate A | z-score, replicate B | z-score, replicate C | outcome |
| --- | --- | --- | --- | --- | --- |
| CAPN8 (calpain 8) | -0.98 | -0.55 | -1.27 | -1.12 | inactive |
| CD33 (CD33 molecule) | -0.68 | -0.73 | -0.59 | -0.71 | inactive |
| WRN (WRN RecQ like helicase) | 2.52 | 2.54 | 2.51 | 2.51 | active |
| FOXN4 (forkhead box N4) | 0.88 | 0.9 | 0.32 | 1.43 | inactive |
| MPC1 | -0.58 | -0.65 | -0.31 | -0.77 | inactive |
| RNF13 (ring finger protein 13) | -0.36 | -0.63 | -0.43 | -0.02 | inactive |
| LOC401545 (retired record) | 0.67 | 0.74 | 0.58 | 0.7 | inactive |
| ZSCAN2 (zinc finger and SCAN domain containing 2) | 1.13 | 1.63 | 1.57 | 0.18 | inactive |
| C12orf76 (chromosome 12 open reading frame 76) | -1.44 | -1.74 | -1.2 | -1.39 | inactive |
| ZDHHC8BP (ZDHHC8B, pseudogene) | 2.2 | 2.62 | 2.42 | 1.56 | active |
| KCNN2 (potassium calcium-activated channel subfamily N member 2) | -0.72 | -0.64 | -0.89 | -0.62 | inactive |
| LOC391540 (retired record) | 0.03 | -0.15 | 0.18 | 0.08 | inactive |
| MYT1L (myelin transcription factor 1 like) | -0.06 | -0.05 | -0.12 | -0.02 | inactive |
| FHDC1 (FH2 domain containing 1) | -0.44 | -0.59 | -0.41 | -0.31 | inactive |
| DAXX (death domain associated protein) | 1.46 | 1.01 | 1.56 | 1.8 | inactive |
| FANCL (FA complementation group L) | -0.29 | -0.29 | -0.68 | 0.09 | inactive |
| SLC66A3 | 1.61 | 1.65 | 1.89 | 1.3 | inactive |
| ATOX1 (antioxidant 1 copper chaperone) | 0.54 | 0.52 | 0.31 | 0.78 | inactive |
| SUPT20H (SPT20 homolog, SAGA complex component) | 0.24 | 0.02 | 0.53 | 0.18 | inactive |
| LOC402559 (retired record) | -0.38 | -0.09 | -0.9 | -0.14 | inactive |
| USP26 (ubiquitin specific peptidase 26) | 1.04 | 0.82 | 0.95 | 1.34 | inactive |
| COQ10B (coenzyme Q10B) | 0.23 | 0.03 | 0.19 | 0.48 | inactive |
| SGCG (sarcoglycan gamma) | -0.67 | -0.73 | -0.67 | -0.61 | inactive |
| KCP (kielin cysteine rich BMP regulator) | -0.62 | -0.25 | -0.73 | -0.9 | inactive |
| INPP5F (inositol polyphosphate-5-phosphatase F) | -1.14 | -0.73 | -1.44 | -1.25 | inactive |
| EHMT1 (euchromatic histone lysine methyltransferase 1) | -0.9 | -0.89 | -1 | -0.81 | inactive |
| ASPNAT (aspartate N-acetyltransferase) | -2.61 | -2.48 | -2.49 | -2.87 | inactive |
| DNAJC19 (DnaJ heat shock protein family (Hsp40) member C19) | 0.32 | 0.11 | 0.5 | 0.34 | inactive |
| EXOSC10 (exosome component 10) | 1.56 | 1.84 | 1.28 | 1.57 | inactive |
| DUSP18 (dual specificity phosphatase 18) | -0.07 | -0.02 | -0.38 | 0.19 | inactive |
| MTA3 (metastasis associated 1 family member 3) | -0.74 | -0.56 | -0.73 | -0.93 | inactive |
| HBD (hemoglobin subunit delta) | 1.04 | 1.2 | 0.98 | 0.94 | inactive |
| OXTR (oxytocin receptor) | -0.75 | -0.9 | -0.48 | -0.87 | inactive |
| PLP1 (proteolipid protein 1) | -1.67 | -1.54 | -1.66 | -1.8 | inactive |
| PLAUR (plasminogen activator, urokinase receptor) | -1.49 | -1.49 | -1.51 | -1.46 | inactive |
| CHRNA9 (cholinergic receptor nicotinic alpha 9 subunit) | -0.36 | -0.53 | -0.36 | -0.19 | inactive |
| FLRT1 (fibronectin leucine rich transmembrane protein 1) | -0.92 | -1.22 | -0.48 | -1.06 | inactive |
| RASA3 (RAS p21 protein activator 3) | 1.32 | 1.18 | 1.16 | 1.62 | inactive |
| CCDC181 (coiled-coil domain containing 181) | -0.76 | -1 | -0.34 | -0.95 | inactive |
| HEXB (hexosaminidase subunit beta) | -0.71 | -0.89 | -0.88 | -0.36 | inactive |
| KLK8 (kallikrein related peptidase 8) | -0.69 | -0.88 | -0.56 | -0.63 | inactive |
| ACSM5 (acyl-CoA synthetase medium chain family member 5) | 0.63 | 0.69 | 0.87 | 0.32 | inactive |
| S100A3 (S100 calcium binding protein A3) | 1.34 | 1.45 | 1.31 | 1.25 | inactive |
| LY6E (lymphocyte antigen 6 family member E) | 0.89 | 1.03 | 0.88 | 0.77 | inactive |
| LOC400923 (retired record) | -0.58 | -0.79 | -0.47 | -0.47 | inactive |
| SMARCA2 | 1.08 | 1.34 | 0.86 | 1.05 | inactive |
| LOC389167 (retired record) | -0.75 | -0.38 | -1.11 | -0.75 | inactive |
| LOC389427 (retired record) | -0.45 | -0.06 | -0.86 | -0.42 | inactive |
| LOC388073 (retired record) | -0.23 | -0.07 | -0.26 | -0.37 | inactive |
| RABL2B (RAB, member of RAS oncogene family like 2B) | 1.33 | 1.11 | 1.26 | 1.63 | inactive |
| LAMC2 (laminin subunit gamma 2) | 0.36 | 0.74 | 0.29 | 0.06 | inactive |
| POLR3C (RNA polymerase III subunit C) | -0.09 | 0.1 | -0.26 | -0.1 | inactive |
| HSPB8 (heat shock protein family B (small) member 8) | 0.4 | 0.21 | 0.74 | 0.26 | inactive |
| COX6B1 (cytochrome c oxidase subunit 6B1) | -1.39 | -1.41 | -1.42 | -1.34 | inactive |
| ASPRV1 (aspartic peptidase retroviral like 1) | -0.06 | 0 | -0.04 | -0.14 | inactive |
| RRN3 (RNA polymerase I transcription factor RRN3) | 0.49 | 0.3 | 0.43 | 0.76 | inactive |
| INVS (inversin) | 0.72 | 0.75 | 1.13 | 0.29 | inactive |
